# From US20170198014A1, “POLYPEPTIDES AND THEIR USE FOR TREATING INFLUENZA” ([…] ITS CENTER FOR COMMERCIALIZATION, priority 2014, published 2017)
# Tests used:
# H3 (A/Hong Kong/1/1968) = H3 (A/Hong Kong/1/1968) (Influenza A virus, UniProt Q91MA7); conditions: read-out: affinity constant via yeast surface display
# [1] = target: HA of H3N2 A/Hong Kong/1/1968 (Influenza A virus, UniProt Q91MA7); conditions: read-out: Kd (binding constant)
# [2] = target: H1N1 A/New Caledonia/20/1999 (Influenza A virus, UniProt Q6WG00); conditions: read-out: Kd (binding constant)
substance,measurement,setting,value
GIVNVPN(P/C)NTTKYQQLARSAIAVYNYHQNAHLEFVENLN(V/C)KEQIAGKTMYYITLAATDDAGKKKIYKAKVGVVESAGWEGVEEFKLV [52solo2],Kd,H3 (A/Hong Kong/1/1968),1 nM
GIVNVPNCNTTKYQQLARTAVAIYNYHEQAHLTFVENLNCKEQLGEGDYYYITLAATDDAGKKAIYEAKIGVVESAGWTGVEEFKLV [Hsc1],Kd,[1],31.2 nM
same,Kd,[2],1120 nM
